Compound potency records, mixed from different reports. Data source: NIAID ChemDB in PubChem.

Common to all: whole-cell or culture tests; agent: Mycobacterium tuberculosis

A number after MIC or MFC names an inhibition level or a share of isolates. Percent inhibition refers to the dose given; in toxicity tests it is the harm to the cells. ECn: concentration that inhibits the pathogen or its effect by n%. An empty or dashed field is not shown. MIC bound comes from a single tested concentration. Rows are shuffled and stem from different studies.

smiles	strain or isolate	method	endpoint	tested at	value
NC(=S)c1ccnc(SCc2ccc(Br)cc2)c1	My 331/88	-	MIC	-	31 µM
COc1ccc(C2(CO)OC(CO)C(O)C2O)cc1	H37Rv	BACTEC	MIC bound	-	>12.5 µg/mL
O=C(Nc1cc(Cl)cc(Cl)c1)C1(c2cccs2)CCOCC1	CDC1551	turbidity	EC50	-	200 µM
Cc1ccc(-c2nc3sc(C)nn3c2COCc2cn(-c3ccc(F)cc3)nn2)cc1	H37Rv	agar	MIC	-	50 µg/mL
NC1=NN(c2ccccc2)C(=O)C1/C(=N/NC(=O)c1cc2ccccc2cc1O)C(=O)Nc1cccc(C(F)(F)F)c1	H37Rv	resazurin	inhibition	6.25 µg/mL	37%
Cc1c(F)c(N2CCNC(C)C2)cc2c1c(=O)c(C(=O)O)cn2C1CC1	33 clinical isolates	-	MIC90	-	1 µg/mL
Cc1ccc(NC(=S)NC2CCCCC2)cc1Cl	H37Rv	BACTEC	MIC bound	-	≤12.5 µg/mL
CC1CCC2(CC1)SC(C)C(=O)N2NC(=O)Cc1csc2nc(-c3ccc(Cl)cc3)cn12	H37Rv	-	inhibition	6.25 µg/mL	89%
NC(=S)c1ccnc(SCc2ccc(F)cc2)c1	My 331/88	-	MIC	-	31 µM
O=c1c(S(=O)(=O)c2cccc(F)c2)c[nH]c2ccc(F)cc12	Clinical isolate	resazurin	MIC	-	16 µg/mL
C=CCn1c(SCC(=O)c2ccccc2)nnc1-c1ccncc1	H37Rv	-	MIC	-	>6.25 µg/mL
CN[C@@H]1[C@H](O[C@H]2[C@H](O[C@H]3[C@H](O)[C@@H](O)[C@H](N=C(N)N)[C@@H](O)[C@@H]3N=C(N)N)O[C@@H](C)[C@]2(O)C=O)O[C@@H](CO)[C@H](O)[C@H]1O	2230	-	MIC	-	>10 µg/mL
CC(C)C(=O)N1c2ccccc2OC(=O)C1CC(=O)Nc1ccccc1	Clinical isolate	resazurin	MIC	-	8 µg/mL
NNC(=O)/C=C/c1ccccc1	BCG	-	MIC	-	1 µg/mL
OCNC(=S)c1cnccn1	KK11-20	-	MBC	-	25 µg/mL
NC(=O)c1cc(Cl)nc2nc(Cl)nc(N)c12	H37Rv	resazurin	MIC bound	-	>6.25 µg/mL
CC(C)C(=O)C1C/C(=C/c2ccccn2)C(=O)/C(=C/c2cccnc2)C1	18b	resazurin	MIC	-	4 µg/mL
NNC(=O)c1ccncc1	-	-	MIC	-	0.02 µg/mL
CCn1cc(C(=O)O)c(=O)c2cc(F)c(N3CCNCC3)cc21	Isolate 870729	-	MIC	-	2 µg/mL
N[C@@H](C(=O)N[C@@H]1C(=O)N2C(C(=O)O)=C(Cl)CS[C@H]12)c1ccccc1	H37Ra	-	MIC	-	256 µg/mL
CCn1cc(C(=O)O)c(=O)c2cc(F)c(-n3cccc3)cc21	64 isolates	-	MIC90	-	16 µg/mL
COc1cccc2c1[n+]([O-])c1cccc(O)c1[n+]2[O-]	PZA-R	-	MIC	-	0.8 µg/mL
CC1CCC2(CC1)SCC(=O)N2NC(=O)Cc1csc2nc(-c3ccc(Cl)cc3)cn12	H37Rv	-	MIC	-	>6.25 µg/mL
COC(=O)Cc1cc(C2CCCCC2)nc2c(C3CCCCC3)cccc12	H37Rv	-	inhibition	6.25 µg/mL	4%
NC(=S)c1ccnc(SCc2ccccc2F)c1	My 331/88	-	MIC	-	16 µM
CC(NNC(=O)c1cc[n+]([B]C#N)cc1)c1ccc(Cl)c(Cl)c1	-	BACTEC	inhibition	0.5 µM	0%
CCOC(=O)C1=C(C)N(c2ccc(F)c(Cl)c2)C(=O)NC1c1ccc(O)cc1	H37Rv	resazurin	MIC	-	>6.25 µg/mL
O=C(Cc1csc2nc(-c3ccccc3)cn12)NN=C1CCCCC1	H37Rv	-	EC50	-	>6.25 µg/mL
O=C1Nc2ccccc2C12C=C(c1ccccc1)Nc1ccc(F)cc1S2	-	-	EC50	-	<12.5 µg/mL
CC1(C)C=Cc2c(cc(O)c3c(O)c4cc5c6c(c(=O)cc(O)c6c4oc23)OC5(C)C)O1	-	-	MIC	-	25 µg/mL
O=C(CSc1nnc(-c2ccncc2)n1Cc1ccccc1)c1ccccc1	H37Rv	-	MIC	-	>6.25 µg/mL
COC(=O)c1cc(C2C3CC4CC(C3)CC2C4)nc2c(C3C4CC5CC(C4)CC3C5)cccc12	H37Rv	-	inhibition	6.25 µg/mL	1%
Cc1nn2c(COCc3cn(-c4ccccc4F)nn3)c(-c3ccc(Cl)cc3)nc2s1	H37Rv	agar	MIC	-	50 µg/mL
CC(=O)N(C(C)=O)n1c(Cc2ccc(Cl)cc2)nn(C(C)=O)c1=O	H37Rv	BACTEC	MIC bound	-	>12.5 µg/mL
C[C@@H]1CN(c2c(F)c(N)c3c(=O)c(C(=O)O)cn(C4CC4)c3c2F)C[C@H](C)N1	10 isolates	-	MIC90	-	0.5 µg/mL
S=C(NCCNC(=S)SSC(=S)NNc1ccccc1)SSC(=S)NNc1ccccc1	H37Rv	BACTEC	inhibition	128 µg/mL	100%
CC1COc2c(N3CCN(C)CC3)c(F)cc3c(=O)c(C(=O)O)cn1c23	CIPT 140010072	-	MIC	-	<1 µg/mL
C[n+]1c(-c2ccc(/C=N/NC(=O)c3ccc(C(=O)N/N=C/c4ccc(-c5cn6ccccc6[n+]5C)cc4)cc3)cc2)cn2ccccc21	H37Rv	BACTEC	MIC bound	-	≤12.5 µg/mL
COC(=O)C1(O)CC(=O)c2c1ccc1c(=O)c3c(O)cc4c(c3oc21)C=CC(C)(C)O4	-	-	MIC	-	12.5 µg/mL
COc1cc2c(c(O)c1OCC=C(C)C)c(=O)c1ccccc1n2C	H37Rv	resazurin	MIC bound	-	>6.25 µg/mL
CC1=C(C(=O)Nc2ccc(C)cc2)C(c2ccc(F)cc2)NC(=O)N1c1ccc(F)c(Cl)c1	H37Rv	resazurin	MIC	-	>6.25 µg/mL
NC(=O)c1cnccn1	KK11-20	-	MBC	-	>200 µg/mL
NC(=O)c1ccccc1NC(=O)C1(c2cccs2)CCOCC1	CDC1551	turbidity	EC50	-	200 µM
O=C(Cc1csc2nc(-c3ccc(Cl)cc3)cn12)NN=C1CCCC1	H37Rv	-	inhibition	6.25 µg/mL	99%
CC(=O)Nc1ccc(/C=N/NC(N)=S)cc1	-	-	MIC	-	0.4 µg/mL
C[C@@H]1CN(c2c(F)c(N)c3c(=O)c(C(=O)O)cn(C4CC4)c3c2F)C[C@H](C)N1	18 isolates	-	MIC90	-	0.5 µg/mL
NNC(=O)c1ccncc1	8 strains (isoniazid- rifampin-resistant)	-	MIC	-	16 µg/mL
C=C1C(=O)OC2/C=C(/C)CC/C=C(/C)CC(OC(=O)/C(=C/CO)CO)C12	H37Rv	BACTEC	inhibition	12.5 µg/mL	22%
CCc1nc2ccc(Cl)cn2c1C(=O)NCc1ccc(N2CCC(c3ccc(OC(F)(F)F)cc3)CC2)cc1	H37Rv	low oxygen	MIC	-	1.3 µM
CO[C@H]1/C=C/O[C@@]2(C)Oc3c(C)c(O)c4c(=O)c(c5oc6cc(N7CCN(CC(C)C)CC7)cc(=O)c6nc5c4c3=C2O)NC(=O)/C(C)=C\C=C\[C@H](C)[C@H](O)[C@@H](C)[C@@H](O)[C@@H](C)[C@H](OC(C)=O)[C@@H]1C	2230 (rifampin-resistant)	-	MBC	-	0.2 µg/mL
O=C1C(Cl)=C(NCCCN(CCO)CCO)C(=O)c2ccccc21	H37Rv	BACTEC	MIC bound	-	>12.5 µg/mL
O=C(Cc1csc2nc(-c3ccccc3)cn12)NN=C1CCCC1	H37Rv	-	EC50	-	>6.25 µg/mL
N[C@@H]1CONC1=O	-	-	MIC	-	10 µg/mL
Cc1ccc2nc(C)c(C(=O)NCc3cccc(S(F)(F)(F)(F)F)c3)n2c1	H37Rv	low oxygen	MIC	-	200 µM
CC(C)c1ccc(NC(=O)C2(c3cccs3)CCOCC2)cc1	CDC1551	turbidity	EC50	-	8.5 µM
COC1OC2CCN(C(=O)OCc3ccccc3)C2C1OCc1ccccc1	H37Rv	BACTEC	MIC bound	-	>12.5 µg/mL
Cc1cn2c(C(=O)NCc3ccc(S(F)(F)(F)(F)F)cc3)c(C)nc2s1	H37Rv	low oxygen	MIC	-	83 µM
CC(=O)n1cc(CCC(=O)O)c2ccccc21	H37Rv	BACTEC	MIC bound	-	>12.5 µg/mL
CC(C)(O/N=C(/C(=O)N[C@@H]1C(=O)N2C(C(=O)[O-])=C(C[n+]3ccccc3)CS[C@H]12)c1csc(N)n1)C(=O)O	H37Ra	-	MIC	-	128 µg/mL
Cn1c(=O)cc2c3c(c(N)ccc31)C(=O)c1ccccc1-2	H37Rv	BACTEC	MIC	-	3.13 µg/mL
O=C(O)c1ccnc2ccccc12	H37Rv	-	MIC	-	>6.25 µg/mL
NC(=S)c1ccnc(SCc2ccccc2)c1	My 331/88	-	MIC	-	16 µM
S=c1[nH]nc(-c2ccncc2)n1CCc1ccccc1	H37Rv	-	MIC	-	>6.25 µg/mL
S=c1nc[nH]c2c1ccc1[nH]cnc12	H37Rv	BACTEC	inhibition	12.5 µg/mL	9%
COc1ccc(/C=C/C(=O)NN)cc1OC	BCG	-	MIC	-	5 µg/mL
CCOC(=O)C1=C(C)N(c2ccc(F)c(Cl)c2)C(=O)NC1c1ccc(F)cc1	H37Rv	resazurin	MIC	-	>6.25 µg/mL
COC(=O)c1ccc2c(C3CCCC3)cccc2n1	H37Rv	-	inhibition	6.25 µg/mL	97%
Cc1ccc(CSc2cc(C(N)=S)ccn2)cc1	My 331/88	-	MIC	-	62 µM
O=C(CSc1nnc(-c2ccncc2)n1-c1ccccc1)c1ccccc1	H37Rv	-	inhibition	6.25 µg/mL	12%
CC1=NN(C(=O)c2ccncc2)C(=O)C1N=Nc1ccc(S(N)(=O)=O)cc1	H37Rv	BACTEC	MIC bound	-	>12.8 µg/mL
Cc1ccc(CNS(=O)(=O)c2ccc(-c3n[nH]c(C)c3C)o2)o1	18b	resazurin	MIC	-	8 µg/mL
N#Cc1ccnc(SCc2ccc(F)cc2)c1	My 331/88	-	MIC	-	62 µM
Cc1nccn1Cc1nc(-c2ccc(C(F)(F)F)cc2)no1	Clinical isolate	resazurin	MIC	-	16 µg/mL
Nc1ccc(S(=O)(=O)c2ccc(N)cc2)cc1	-	-	EC50	-	>16 µg/mL
CCC(CC)C(=O)Nc1occ2c1CC(C)CC2	Clinical isolate	resazurin	MIC	-	8 µg/mL
NC(=O)c1cnccn1	-	-	MIC	-	6.2 µg/mL
Fc1ccc(CNc2ccc(Cl)nn2)cc1	Clinical isolate	resazurin	MIC	-	16 µg/mL
CC1=C(C(=O)Nc2ccc(C)cc2)C(c2ccccc2Cl)NC(=O)N1c1ccc(F)c(Cl)c1	H37Rv	resazurin	MIC	-	>6.25 µg/mL
O=C(O)c1cc(C2C3CC4CC(C3)CC2C4)c2ccccc2n1	H37Rv	-	MIC	-	>6.25 µg/mL
C/C(O)=C(\C=N\C(=S)Nc1ccc(S(=O)(=O)Nc2nccs2)cc1)C(=O)Nc1ccccc1C	H37Rv	resazurin	inhibition	6.25 µg/mL	-14%
CCOC(=O)C1=C(C)N(c2ccc(F)c(Cl)c2)C(=O)NC1c1ccccc1	H37Rv	resazurin	MIC	-	>6.25 µg/mL
CC1CCC(=NNC(=O)Cc2csc3nc(-c4ccccc4)cn23)CC1	H37Rv	-	EC50	-	>6.25 µg/mL
CCC1OC(=O)C(C)C(OC2CC(C)(O)C(O)C(C)O2)C(C)C(O)C(C)(O)CC(C)C(=O)C(C)C(O)C1C	H37Rv	BACTEC	MIC	-	≥12.5 µg/mL
C=C(C)C1CC2C(=O)c3c(O)cc(O)cc3OC2c2c(O)c3c(c(O)c21)OC(C)(C)C=C3	-	-	MIC	-	50 µg/mL
CC(=O)OCC1=C(C(=O)O)N2C(=O)[C@@H](NC(=O)Cc3cccs3)[C@H]2SC1	H37Ra	-	MIC	-	32 µg/mL
O=C(NCCc1ccc(Cl)cc1)C1(c2cccs2)CCOCC1	CDC1551	turbidity	MIC99	-	19.3 µM
CCN(CC)CCCN(C)Cc1c(-c2ccccc2)oc(-c2ccccc2)c1Cl	H37Rv	BACTEC	MIC	-	1.56 µg/mL
COc1ccc(/C=C/C(=O)O)cc1	BCG	-	MIC	-	100 µg/mL

The last 12 rows once more:

Fc1ccc(CNc2ccc(Cl)nn2)cc1 ; strain or isolate: Clinical isolate ; method: resazurin ; endpoint: MIC ; value: 16 µg/mL
CC1=C(C(=O)Nc2ccc(C)cc2)C(c2ccccc2Cl)NC(=O)N1c1ccc(F)c(Cl)c1 ; strain or isolate: H37Rv ; method: resazurin ; endpoint: MIC ; value: >6.25 µg/mL
O=C(O)c1cc(C2C3CC4CC(C3)CC2C4)c2ccccc2n1 ; strain or isolate: H37Rv ; endpoint: MIC ; value: >6.25 µg/mL
C/C(O)=C(\C=N\C(=S)Nc1ccc(S(=O)(=O)Nc2nccs2)cc1)C(=O)Nc1ccccc1C ; strain or isolate: H37Rv ; method: resazurin ; endpoint: inhibition ; tested at: 6.25 µg/mL ; value: -14%
CCOC(=O)C1=C(C)N(c2ccc(F)c(Cl)c2)C(=O)NC1c1ccccc1 ; strain or isolate: H37Rv ; method: resazurin ; endpoint: MIC ; value: >6.25 µg/mL
CC1CCC(=NNC(=O)Cc2csc3nc(-c4ccccc4)cn23)CC1 ; strain or isolate: H37Rv ; endpoint: EC50 ; value: >6.25 µg/mL
CCC1OC(=O)C(C)C(OC2CC(C)(O)C(O)C(C)O2)C(C)C(O)C(C)(O)CC(C)C(=O)C(C)C(O)C1C ; strain or isolate: H37Rv ; method: BACTEC ; endpoint: MIC ; value: ≥12.5 µg/mL
C=C(C)C1CC2C(=O)c3c(O)cc(O)cc3OC2c2c(O)c3c(c(O)c21)OC(C)(C)C=C3 ; endpoint: MIC ; value: 50 µg/mL
CC(=O)OCC1=C(C(=O)O)N2C(=O)[C@@H](NC(=O)Cc3cccs3)[C@H]2SC1 ; strain or isolate: H37Ra ; endpoint: MIC ; value: 32 µg/mL
O=C(NCCc1ccc(Cl)cc1)C1(c2cccs2)CCOCC1 ; strain or isolate: CDC1551 ; method: turbidity ; endpoint: MIC99 ; value: 19.3 µM
CCN(CC)CCCN(C)Cc1c(-c2ccccc2)oc(-c2ccccc2)c1Cl ; strain or isolate: H37Rv ; method: BACTEC ; endpoint: MIC ; value: 1.56 µg/mL
COc1ccc(/C=C/C(=O)O)cc1 ; strain or isolate: BCG ; endpoint: MIC ; value: 100 µg/mL